# Measured values as given in article PMC10222646 (Microorganisms, 2023).
# What was measured:
# human erythrocytes = experiment: Permeability and stability in human erythrocytes (RBC and iRBC)
# [1] = system: macrophage-like cells differentiated from THP-1; experiment: MTT cytotoxicity assay, macrophage derived from THP-1; settings: read-out: LC50, 72 h
Molecule,"total cellular arsenic levels in RBC and iRBC (human erythrocytes; 100 µM AST, 48 h, control subtracted, Figure 6 inset)",predominant arsenic species in the culture medium of erythrocytes (human erythrocytes; HPLC-ICP-MS),uptake by erythrocytes (human erythrocytes; regardless of malaria infection),CC50 [1] [µM]
"C[As](=O)(O)CC[C@H](N)C(=O)O [AST, 2-amino-4-(hydroxymethylarsinoyl)butanoate]",up to 0.006 nmol/mg dry weight,nearly exclusively AST,took up little AST,
Sodium (meta)arsenite,,,,100
